Residue numbers refer to the chain shown, from its start. The list shows a part of the results. Env chains of viruses from a treatment-interruption trial, translated from the printed DNA. IC50 / IC80 of two broadly neutralizing antibodies; lower = more sensitive virus; >50 µg/ml means not reached and <0.001 µg/ml is below the lowest dose. No active / inactive call.
B1: HIV-1 Env, rebound clone, placebo arm (protein)
chain: MRVKGIRKSCQRLWRWGIMLLGMLMISSATEKLWVTVYYGVPVWKEANTTLFCASDAKAYDTEAHNVWATHACVPTDPNPQELDLENVTENFNMWKNGMVEQMHEDVISLWDQSLKPCVKLTPLCVTLNCTNDVNFRVNSSNSNSSINSSSSISNSSIEEKGEIKNCSFNITTSIRDKVTKEYALFYRLDIVSIKDDKSDNSNNTNTRYRLINCNTSVITQACPKVSFEPIPIHYCAPAGFAILKCKDREFNGSGTCQNVSTVQCTHGIKPVVSTQLLLNGSLAEGEVVIRSENFSDNAKTIIVQLSRPVVINCTRPNNNTRKSIHIAPGRTFYATGDIIGDIRQAHCNISKRDWNKTLKEVKGKLEKQYNKTILFNQSSGGDPEIVFHTFNCAGEFFYCNTTNLFNNNITINNGTNGTNTNENITLPCRIKQIINLWQEVGKAMYAPPIKGQIRCSSNITGLLLTRDGGLNENRTNDTVRPGGGDMRDNWRSELYRYKVVEIEPLGIAPTKAKRRVVQREKRAVGAIGAMFLGLLGAAGSTMGAASITLTVQARLVLSGIVQQQNNLLRAIEAQQHLLQLTVWGIKQLQARVLAVERYLKDQQLLGIWGCSGKLICTTSVPWNSSWSNRSLEYIWNNMTWMQWEREIDNYTGKIYTLIEEAQHKQEENELELLKLDEWSNLWNWFDISKWLWYIKIFIMIVGGLIGLRIVFAVISIVNRVRKGYSPLSFQTHFPAPRGPDRPGGTEEEGGDRDRDRSTRLVDGFLALVWDDLRSLILFLYHHLRDLLLIITRIVGLLGRRGWEILKYWWNLLQYWSRELKLSAISLYNATAVAVAEGTDRVIEVVQRIFRGVLHVPRRIRQGLERILV
B2: HIV-1 Env, rebound clone, placebo arm (protein)
chain: B1 chain with F136L, N204D
B3: HIV-1 Env, rebound clone, placebo arm (protein)
chain: MRVKGIRKSYQPLWVGGILLLGMLMLCSTTEQLWVTVYYGVPVWKEATTTLFCASDAKGYDTEAHNVWATHACVPTDPNPQELKLENVTENFNMWKNDMVQQMHEDIISLWDQSIKPCVKLTPLCVTLNCSGVNINNTNANTTSNNTSWREMKEEIKNCSFNHTDIRNKMRKDYALFNSLDVIPIDRNDTTSYMLTSCNTSVITQACPKISFEPIPIHYCAPAGFAILKCNDKKFNGTGPCKNVSLVQCTHGIKPVVSTQLLLNGSLAEEDIVIRSEDFTNNAKTIIVQLNSSIAINCSRPNNNTRKSIHLGPGAAIYATGDIIGNIRQAHCNLSKVDWENTLDKIAKKLQGQFGENKTIVFNHSSGGDPEIVQHSFNCGGEFFYCNTTNLFFWNSTGHRNNTPNNSTDIITIQCRIKQIINRWQQVGRAIYAPPISGNISCSSIITGLLLTRDGGNSSNSNETFRPGGGDMRDNWRSELYKYKVVSIEPLGIAPTRARRRVVQREKRAVGMIGAMFLGFLGAAGSTMGAASVALTVQARQLLSGIVQQQNNLLRAIEAQQHMLQLTVWGIKQLQARVLAVERYLKDQQLLGIWGCSGKLICTTNVPWNISWSNRNLKDIWGNMTWMQWEREIDNYTGLIYSLLTESQTQQEQNEKELLELDKWASLWNWFDISNWLWYIKIFIMIVGGLVGLRIIFTILNVVNRVRKGYSPLSFQTRLPATRGPDRPEETEEEGGGRDRGRSETLVTGFLALIWDDLRSLCLFIYHRLRDLLLIATRSVELLGRRGWELLKYLWNLLQYWGQELRNSAVSLLNATAIAVAEGTDRIIEVAQRIGRAIIHIPRRIRQGAERALL
B4: HIV-1 Env, rebound clone, placebo arm (protein)
chain: MRVKGIRKSYQPLWVGGILLLGMLMLCSTTEQLWVTVYYGVPVWKEATTTLFCASDAKGYDTEAHNVWATHACVPTDPNPQELKLENVTENFNMWKNGMVQQMHEDIISLWDQSIKPCVKLTPLCVTLNCSGVNINNTNANITSNNTSWREMKEEIKNCSFNHTDTRNKMRKDYALFNSLDVIPIDRNDSTSYMLTSCNTSVITQACPKISFEPIPIHYCAPAGFAILKCNDKNFNGTGPCKNVSLVQCTHGIKPVVSTQLLLNGSLAEEDIVIRSENFTNNAKTIIVQLNSSIEITCIRPNNNTRKSIHLGPGAAFYATGDIIGDIRKAYCNISKVKWENTLDKIAKKLQGQFGENKTIVFNHSSGGDPEIVHHSFNCGGEFFYCNTTKLFSWNSTRTPNNSTDIITIPCRIKQIINRWQQVGRAIYAPPISGNISCSANITGLLLTRDGGDSNSTDNNTETFRPGGGDMRDNWRSELYKYKVVSIEPLGIAPTKARRRVVQREKRAVGMIGAMFLGFLGAAGSTMGAASVALTVQARQLLSGIVQQQNNLLRAIEAQQHMLQLTVWGIKQLQARVLAVERYLKDQQLLGIWGCSGKLICTTNVPWNISWSNRNLDDIWGNMTWMQWEREIDNYTGLIYSLLTESQTQQEQNEKELLELDKWASLWNWFDISNWLWYIRIFIMIVGGLVGLRIIFTILNVVNRVRKGYSPLSFQTRLPATRGPDRPEETEEEGGGRDRGRSETLVTGFLALIWDDLRSLCLFIYHRLRDLLLIATRSVELLGRRGWELLKYLWNLLQYWGQELRNSAVSLLNATAIAVAEGTDRIIEVAQRIGRAIIHIPRRIRQGAERALL
B5: HIV-1 Env, rebound clone, placebo arm (protein)
chain: B4 chain with I142T
B6: HIV-1 Env, rebound clone, placebo arm (protein)
chain: B4 chain with I142T, W667G

target: antibody 10-1074; assay: neutralization IC50; higher = virus less sensitive to the antibody
Procedure: (§1)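 Pseudovirus bearing the Env chain mixed with antibody, from 50 µg/ml in fivefold dilutions, on TZM-bl reporter cells, in duplicate.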

Row | Binder | neutralization IC50 [µg/mL]
1 | B1 | 0.01
2 | B2 | 0.018
3 | B3 | 0.052
4 | B4 | 0.009
5 | B5 | 0.008
6 | B6 | 0.003

target: antibody 3BNC117; assay: as above
Procedure: as §1

Row | Binder | neutralization IC50 [µg/mL]
7 | B1 | 0.084
8 | B2 | 0.149
9 | B3 | 0.147
10 | B4 | 0.619
11 | B5 | 0.441
12 | B6 | 0.954

target: antibody 10-1074; assay: neutralization IC80; higher = virus less sensitive to the antibody
Procedure: as §1

Row | Binder | neutralization IC80 [µg/mL]
13 | B1 | 0.029
14 | B2 | 0.046
15 | B3 | 0.145
16 | B4 | 0.022
17 | B5 | 0.024
18 | B6 | 0.021

target: antibody 3BNC117; assay: as above
Procedure: as §1

Row | Binder | neutralization IC80 [µg/mL]
19 | B1 | 0.242
20 | B2 | 0.507
21 | B3 | 0.484
22 | B4 | 1.7
23 | B5 | 1.23
24 | B6 | 3.98
